# Laboratory results from paper PMC10671849, “Synthesis and Evaluation of Marine-Inspired Compounds Result in Hybrids with Antitrypanosomal and Antileishmanial Activities” (Marine Drugs, 2023).
# System: T. brucei Lister 427 bloodstream forms
# Experiment: Anti-T. brucei activity, resazurin-based assay on bloodstream forms
# Assay type: cell-based, Trypanosoma brucei
# Conditions: selectivity index: CC50 THP-1 (72 h) / IC50 T. brucei (72 h)
# Description: T. brucei Lister 427 bloodstream forms were grown in a humidified incubator at 37 °C and 5% CO2 in complete HMI-9 medium supplemented with 10% heat-inactivated fetal bovine serum (FBS) and 100 UI/mL penicillin/streptomycin. Parasite maintenance was performed in T25 ventilated flasks by subpassage at a concentration of 1 × 10^4/mL every 2 days in T25 ventilated flasks. Luciferase-expressing L. infantum (MHOM/MA/67/ITMAP-263) axenic amastigotes expressing episomal luciferase were maintained in MAA20 [31] at 37 °C in a 5% CO2 environment with subculture every 7 days at 1 × 10^6/mL in 5-mL T25 ventilated flasks.
# The compounds’ efficacy against bloodstream-stage trypomastigotes was evaluated using a resazurin-based assay. Parasites were added to 100 µL of serial dilutions of compounds in supplemented complete medium at a cell density of 5 × 10^3/mL. As a quality control, a dose–response curve for the antitrypanosomal pentamidine was included in all the assays. The final volume of the assay was 200 µL/well. Each condition was carried out in duplicate. Following 72 h of incubation at the specific conditions for parasites, 20 […] of a 0.5 mM resazurin solution was added, and the plates were incubated for a further 4 h under the same conditions. Fluorescence was measured at 544 nm and 590 nm excitation and emission wavelength, respectively, using a Synergy 2 Multi-Mode Reader (Biotek, Winooski, VT, USA). The results are shown as % of parasite growth inhibition compared to control (untreated parasites) and represent the average of at least three independent experiments. The effect was evaluated by the determination of the IC50 value (concentration required to inhibit growth in 50%) and calculated by non-linear regression curves using GraphPad Prism software, version 8.1.1 for Windows (GraphPad Software, San Diego, CA, USA).
row,Structure (SMILES),SI T. brucei
1,"C=CCc1cc(Cn2cc(-c3nc4ccc(OC)cc4c(=O)[nH]3)nn2)c(O)c(OC)c1 [10b, 2-(1-(5-allyl-2-hydroxy-3-methoxybenzyl)-1H-1,2,3-triazol-4-yl)-6-methoxyquinazolin-4(3H)-one]",>5
2,"C=CCc1cc(Cn2cc(C(=O)Nc3ccc(F)cc3C(N)=O)nn2)c(O)c(OC)c1 [9c, 1-(5-allyl-2-hydroxy-3-methoxybenzyl)-N-(2-carbamoyl-4-fluorophenyl)-1H-1,2,3-triazole-4-carboxamide]",2
3,"N=C(N)c1ccc(OCCCCCOc2ccc(C(=N)N)cc2)cc1 [Pentamidine, pentamidine, reference compound]",6734
4,"C=CCc1cc(Cn2cc(-c3nc4ccc(F)cc4c(=O)[nH]3)nn2)c(O)c(OC)c1 [10c, 2-(1-(5-allyl-2-hydroxy-3-methoxybenzyl)-1H-1,2,3-triazol-4-yl)-6-fluoroquinazolin-4(3H)-one]",>9
5,"C=CCc1cc(Cn2cc(C(=O)Nc3ccc(Cl)cc3C(N)=O)nn2)c(O)c(OC)c1 [9d, 1-(5-allyl-2-hydroxy-3-methoxybenzyl)-N-(2-carbamoyl-4-chlorophenyl)-1H-1,2,3-triazole-4-carboxamide]",>6
6,"C=CCc1cc(Cn2cc(-c3nc4ccccc4c(=O)o3)nn2)c(O)c(OC)c1 [compound 14, 2-(1-(5-allyl-2-hydroxy-3-methoxybenzyl)-1H-1,2,3-triazol-4-yl)-4H-benzo[d][1,3]oxazin-4-one]",>3
7,"C=CCc1cc(Cn2cc(C(=O)Nc3ccc(OC)cc3C(N)=O)nn2)c(O)c(OC)c1 [9b, 1-(5-allyl-2-hydroxy-3-methoxybenzyl)-N-(2-carbamoyl-4-methoxyphenyl)-1H-1,2,3-triazole-4-carboxamide]",>6
